Results taken from ChEMBL document CHEMBL1201862, “PubChem BioAssay data set” (2004).
Active and inactive are the calls of the source.

Columns and labels:
[1] = HepG2 cell cytotoxicity, dose response, cytotoxicity control for non-replicating M. tuberculosis project (AID 489018); format: functional; settings: Mycobacterium tuberculosis
[2] = THP-1 cell cytotoxicity, dose response, cytotoxicity control for non-replicating M. tuberculosis project (AID 489025); format: functional
[3] = Vero E6 cell cytotoxicity, dose response, cytotoxicity control for non-replicating M. tuberculosis project, secondary assay (AID 492998); format: functional, VeroE6; settings: Vero C1008

Measured: CC50

O=C(Nc1ccc(Br)cn1)c1ccc([N+](=O)[O-])o1
active: [1] > 20 µM | [2] 9.19 µM | [3] 6.83 µM
